Measurements as given in US6906198B1, “Antipicornaviral compounds, their preparation and use” (Agouron Pharmaceuticals, Inc., priority 1998, dated 2005).

What was measured:
[1] = tested on: enterovirus type 70 (EV 70); experiment: Anti-enteroviral cell culture assay (XTT), EV 70; type: cell-based; conditions: therapeutic index CC50/EC50, EV-70
Method: (§1) Anti-Echoviral and -Enteroviral Cell Culture Assays
(§2) Echovirus type 11 (EV 11) and enterovirus type 70 (EV 70) were purchased from ATCC (Rockville, Md.). Virus stocks were propagated and antiviral assays were performed in MRC-5 cells (ATCC). Cells were grown in minimal essential medium with 10% fetal bovine serum (Life Technologies, Gaithersburg, Md.).
(§3) The ability of compounds to protect cells against either EV 11 or EV 70 infection was measured by the XTT dye reduction method (Weislow et al., J. Natl. Cancer Inst. 1989, vol. 81, 577-586). MRC-5 cells were infected with EV 11 or EV 70 at an m.o.i. of 0.003 or 0.004, respectively, or mock-infected with medium only. Infected or uninfected cells were added at 1×10^4 cells per well and incubated with appropriate concentrations of compound. Four days later, XTT/PMS was added to test plates, and the amount of formazan produced was quantified spectrophotometrically at 450/650 nm. The EC50 was calculated as the concentration of compound that increased the formazan production in compound-treated, virus-infected cells to 50% of that produced by compound-free, uninfected cells. The 50% cytotoxic dose (CC50) was calculated as the concentration of compound that decreased formazan production in compound-treated, uninfected cells to 50% of that produced in compound-free, uninfected cells. The therapeutic index (TI) was calculated by dividing the CC50 by the EC50.
(§4) The compounds were tested against control compounds Pirodavir (obtained from Janssen Pharmaceuticals) and Pleconaril (prepared according to Diana et al., J. Med. Chem. 1995, vol. 38, 1355). Antiviral data obtained for the test compounds against strain EV 11 and EV 70 are shown below in Table 5.

[2] = tested on: HRV-14; experiment: Antirhinoviral H1-HeLa cell culture assay (XTT), HRV-14; type: cell-based, human rhinovirus; conditions: therapeutic index CC50/EC50, HRV serotype-14
Method: (§5) Antirhinoviral H1-HeLa Cell Culture Assay
(§6) In this cell protection assay, the ability of compounds to protect cells against HRV infection was measured by the XTT dye reduction method, which is described in Weislow et al., J. Natl. Cancer Inst. 1989, vol. 81, 577-586.
(§7) H1-HeLa cells were infected with HRV-14 at a multiplicity of infection (m.o.i.) of 0.13 (virus particles/cell) or mock-infected with medium only. Infected or mock-infected cells were resuspended at 8×10^5 cells per mL, and incubated with appropriate concentrations of the compounds to be tested. Two days later, XTT/PMS was added to test plates and the amount of formazan produced was quantified spectrophotometrically at 450/650 nm. The EC50 value was calculated as the concentration of compound that increased the percentage of formazan production in compound-treated, virus-infected cells to 50% of that produced by compound-free, mock-infected cells. The 50% cytotoxic dose (CC50) was calculated as the concentration of compound that decreased the percentage of formazan produced in compound-treated, mock-infected cells to 50% of that produced by compound-free, mock-infected cells. The therapeutic index (TI) was calculated by dividing the CC50 value by the EC50 value.
(§8) All strains of human rhinovirus (HRV) for use in this assay were purchased from American Type Culture Collection (ATCC), except for HRV serotype-14 (produced from the infectious cDNA clone constructed by Dr. Robert Rueckert, Institute for Molecular Virology, University of Wisconsin, Madison, Wis.). HRV stocks were propagated and viral assays were performed in H1-HeLa cells (ATCC). Cells were grown in minimal essential medium with 10% fetal bovine serum, available from Life Technologies (Gaithersburg, Md.).
(§9) The compounds were tested against control compounds WIN 51711, WIN 52084, and WIN 54954 (obtained from Sterling-Winthrop Pharmaceuticals), Pirodavir (obtained from Janssen Pharmaceuticals), and Pleconaril (prepared according to the method described in Diana et al., J. Med. Chem 1995, vol. 38, 1355). Antiviral data obtained for the test compounds are shown in Tables 1 and 3, where all data are for HRV serotype-14 unless otherwise noted in parentheses.

[3] = tested on: Echovirus type 11 (EV 11); experiment: Anti-echoviral cell culture assay (XTT), EV 11; type: cell-based; conditions: therapeutic index CC50/EC50, EV-11
Method: as §1, §2, §3, §4

[4] = tested on: HRV serotype 17; experiment: Antirhinoviral H1-HeLa cell culture assay (XTT), HRV-17; type: cell-based, human rhinovirus; conditions: therapeutic index CC50/EC50, HRV (17)
Method: as §5, §6, §7, §8, §9

[5] = tested on: HRV serotype 3; experiment: Antirhinoviral H1-HeLa cell culture assay (XTT), HRV-3; type: cell-based, human rhinovirus; conditions: therapeutic index CC50/EC50, HRV (3)
Method: as §5, §6, §7, §8, §9

[6] = tested on: HRV serotype 30; experiment: Antirhinoviral H1-HeLa cell culture assay (XTT), HRV-30; type: cell-based, human rhinovirus; conditions: therapeutic index CC50/EC50, HRV (30)
Method: as §5, §6, §7, §8, §9

[7] = tested on: HRV serotype 89; experiment: Antirhinoviral H1-HeLa cell culture assay (XTT), HRV-89; type: cell-based, human rhinovirus; conditions: therapeutic index CC50/EC50, HRV (89)
Method: as §5, §6, §7, §8, §9

[8] = tested on: HRV serotype 39; experiment: Antirhinoviral H1-HeLa cell culture assay (XTT), HRV-39; type: cell-based, human rhinovirus; conditions: therapeutic index CC50/EC50, HRV (39)
Method: as §5, §6, §7, §8, §9

[9] = tested on: HRV serotype 9; experiment: Antirhinoviral H1-HeLa cell culture assay (XTT), HRV-9; type: cell-based, human rhinovirus; conditions: therapeutic index CC50/EC50, HRV (9)
Method: as §5, §6, §7, §8
(§10) The compounds were tested against control compounds WIN 51711, WIN 52084, and WIN 54954 (obtained from Sterling-Winthrop Pharmaceuticals), Pirodavir (obtained from Janssen Pharmaceuticals), and Pleconaril (prepared according to the method described in Diana et al., J. Med. Chem 1995, vol. 38, 1355). […]

[10] = tested on: HRV serotype 12; experiment: Antirhinoviral H1-HeLa cell culture assay (XTT), HRV-12; type: cell-based, human rhinovirus; conditions: therapeutic index CC50/EC50, HRV (12)
Method: as §5, §6, §7, §8, §9

[11] = tested on: HRV serotype 87; experiment: Antirhinoviral H1-HeLa cell culture assay (XTT), HRV-87; type: cell-based, human rhinovirus; conditions: therapeutic index CC50/EC50, HRV (87)
Method: as §5, §6, §7, §8, §10

[12] = tested on: HRV serotype 16; experiment: Antirhinoviral H1-HeLa cell culture assay (XTT), HRV-16; type: cell-based, human rhinovirus; conditions: therapeutic index CC50/EC50, HRV (16)
Method: as §5, §6, §7, §8, §9

[13] = tested on: HRV serotype 38; experiment: Antirhinoviral H1-HeLa cell culture assay (XTT), HRV-38; type: cell-based, human rhinovirus; conditions: therapeutic index CC50/EC50, HRV (38)
Method: as §5, §6, §7, §8, §10

[14] = tested on: HRV serotype 1A; experiment: Antirhinoviral H1-HeLa cell culture assay (XTT), HRV-1A; type: cell-based, human rhinovirus; conditions: therapeutic index CC50/EC50, HRV (1A)
Method: as §5, §6, §7, §8, §9

[15] = tested on: HRV serotype 2; experiment: Antirhinoviral H1-HeLa cell culture assay (XTT), HRV-2; type: cell-based, human rhinovirus; conditions: therapeutic index CC50/EC50, HRV (2)
Method: as §5, §6, §7, §8, §9

[16] = tested on: HRV serotype 13; experiment: Antirhinoviral H1-HeLa cell culture assay (XTT), HRV-13; type: cell-based, human rhinovirus; conditions: therapeutic index CC50/EC50, HRV (13)
Method: as §5, §6, §7, §8, §9

[17] = tested on: HRV serotype 25; experiment: Antirhinoviral H1-HeLa cell culture assay (XTT), HRV-25; type: cell-based, human rhinovirus; conditions: therapeutic index CC50/EC50, HRV (25)
Method: as §5, §6, §7, §8, §10

[18] = tested on: HRV serotype 10; experiment: Antirhinoviral H1-HeLa cell culture assay (XTT), HRV-10; type: cell-based, human rhinovirus; conditions: therapeutic index CC50/EC50, HRV (10)
Method: as §5, §6, §7, §8, §9

[19] = tested on: Coxsackievirus type A-21 (CAV-21); experiment: Anticoxsackieviral cell culture assay (XTT), CAV-21; type: cell-based; conditions: therapeutic index CC50/EC50, CAV-21
Method: (§11) Anticoxsackieviral Cell Culture Assay
(§12) Coxsackievirus types A-21 (CAV-21) and B3 (CVB-3) were purchased from American Type Culture Collection (ATCC, Rockville, Md.). Virus stocks were propagated and antiviral assays were performed in H1-HeLa cells (ATCC). Cells were grown in minimal essential medium with 10% fetal bovine serum (Life Technologies, Gaithersburg, Md.).
(§13) The ability of compounds to protect cells against either CAV-21 or CVB-3 infection was measured by the XTT dye reduction method. This method is described in Weislow et al., J. Natl. Cancer Inst. 1989, vol. 81, 577-586. H1-HeLa cells were infected with CAV-21 or CVB-3 at a multiplicity of infection (m.o.i.) of 0.025 or 0.075, respectively, or mock-infected with medium only. H1-HeLa cells were plated at 4×10^4 cells per well in a 96-well plate and incubated with appropriate concentrations of the test compound. One day (CVB-3) or two days (CAV-21) later, XTT/PMS was added to test plates and the amount of formazan produced was quantified spectrophotometrically at 450/650 nm. The EC50 was calculated as the concentration of compound that increased the formazan production in compound-treated, virus-infected cells to 50% of that produced by compound-free, uninfected cells. The 50% cytotoxic dose (CC50) was calculated as the concentration of compound that decreased formazan production in compound-treated, uninfected cells to 50% of that produced in compound-free, uninfected cells. The therapeutic index (TI) was calculated by dividing the CC50 by the EC50.
The compounds were tested against control compounds WIN 54954 (obtained from Sterling-Winthrop Pharmaceuticals), Pirodavir (obtained from Janssen Pharmaceuticals), and Pleconaril (prepared according to Diana et al., J. Med. Chem. 1995, 38, 1355).

[20] = tested on: Coxsackievirus type B3 (CVB-3); experiment: Anticoxsackieviral cell culture assay (XTT), CVB-3; type: cell-based; conditions: therapeutic index CC50/EC50, CVB-3
Method: as §11, §12
as §13, with “The 50% cytotoxic dose (CC50) was calculated as the concentration of compound that decreased formazan production in compound-treated, uninfected cells to 50% of that produced in compound-free, uninfected cells.” left out, “EC50. […]” for “EC50.”

CCOC(=O)c1ccc(OCCC2CCN(c3ccc(C)nn3)CC2)cc1 [Pirodavir, reference compound]
TI [1]: >167
TI [2]: >300
TI [3]: >3

CCOC(=O)/C=C/[C@H](C[C@@H]1CCNC1=O)NC(=O)[C@H](Cc1ccc(F)cc1)NC(=O)[C@@H](NC(=O)c1cc(C)on1)C(C)(C)C [(A-7), Ethyl-3-{(5′-Methylisoxazole-3′-carbonyl)-L-α-(t-Butyl-Gly)-L-(4-F-Phe)-L-((S)-Pyrrol-Ala)}-E-Propenoate]
TI [4]: >500
TI [5]: >500
TI [6]: >111
TI [7]: >500
TI [8]: >500
TI [9]: >250
TI [2]: >2500
TI [10]: >143
TI [11]: >16
TI [12]: >250
TI [13]: >58
TI [14]: >333
TI [15]: >500
TI [16]: >333
TI [17]: >50
TI [18]: >166

CCOC(=O)/C=C/[C@H](C[C@@H]1CCNC1=O)NC(=O)[C@H](Cc1ccc(F)cc1)NC(=O)[C@@H](NC(=O)c1cc(C)on1)C(C)C [(A-5), Ethyl-3-{(5′-Methylisoxazole-3′-carbonyl)-L-Val-L-(4-F-Phe)-L-((S)-Pyrrol-Ala)}-E-Propenoate]
TI [4]: >500
TI [5]: >200
TI [19]: >43
TI [6]: >166
TI [7]: >500
TI [8]: >500
TI [1]: >250
TI [20]: >10
TI [10]: >166
TI [3]: >125
TI [14]: >333
TI [16]: >500

Cc1cc(CCCOc2c(C)cc(-c3noc(C(F)(F)F)n3)cc2C)on1 [Pleconaril, reference compound]
TI [19]: >107
TI [2]: >1000
TI [3]: >62

CCOC(=O)/C=C/[C@H](C[C@@H]1CCNC1=O)NC(=O)[C@H](Cc1ccc(F)cc1)OC(=O)[C@@H](NC(=O)c1cc(C)on1)C(C)C [(C-2), Ethyl-3-{(5′-Methylisoxazole-3′-carbonyl)-L-Val-O-L-(4-F-Phe)-L-((S)-Pyrrol-Ala)}-E-Propenoate]
TI [4]: >1428
TI [5]: >500
TI [6]: >333
TI [7]: >2500
TI [8]: >1000
TI [9]: >1000
TI [2]: >5000
TI [10]: >250
TI [11]: >500
TI [12]: >1000
TI [13]: >200
TI [14]: >1000
TI [15]: >2500
TI [16]: >1428
TI [17]: >142
TI [18]: >500
